According to patent US20260069689A1, “ANTI-SARS-COV-2-SPIKE GLYCOPROTEIN ANTIBODIES AND ANTIGEN-BINDING FRAGMENTS” (Regeneron, published 2026):
Positions count from the first letter of the chain named.

B1: mAb14315 (antibody, V domains shown)
VH: QVQLVQSGAEVKKPGSSVKVSCKASGDTFSTYAINWVRQAPGQGLEWMGRFIHIFGTANYAQKFQGRVTITADESTSTAYMELRSLRSEDTAVYYCARDGVDYGDYRPDYWGQGTLVTVSS
VL: EIVLTQSPGTLSLSPGERATLSCRASQSVSSNYLAWYQQKPGQAPRLLIYGASSRATGIPERFSGSGSGTDFTLTISRLEPEDFAVYYCQQYGSSLYTFGQGTKLEIKR
B2: mAb14292 (antibody, V domains shown)
VH: EVQLVESGGGLVQPGGSLRLSCVASGFAFSTYEMNWVRQAPGKGLEWVSYISSSGSTIYYADSVKGRLTISRDNVKNSLYLQMNSLRVEDTAIYYCARDAIRNNDILTDPATFDPWGQGTLVTVSS
VL: not shown
B3: mAb14285 (antibody, V domains shown)
VH: QVQLVQSGAEVKKPGASVKVSCKASGYTFTGYFIHWVRQAPGQGLEWMGWISPISGGTNYAQKFQGRVTVTRDTSITTAYMELSRLTSDDTAVYHCAREGGTWKGDFDYWGQGTLVTVSS
VL: QSALTQPASVSGSPGQSITISCTGTSSDVESYNLVSWYQQHPGKAPKLMIYEGSKRPSGVSNRFSGSKSGNTASLTISGLQAEDEADYYCSSYAGSSTWVFGGGTKLTVLG
B4: mAb14312 (antibody, V domains shown)
VH: EVQLVESGGGLVQPGGSLRLSCAASGFTVSRSYMTWVRQAPGKGLEWVSVIFTGGRTDHADSVKGRFTISRHNSKNTLYLQMNSLRTEDTAVYYCARVAIVGATGAFDIWGQGTMVTVSS
VL: QSVLTQPPSVSGAPGQRVTISCTGSSSNIGAGDDVHWYQQLPGTAPKLLIYGNSNRPSGVPDRFSGSKSGTSASLAITGLQAEDEADYYCQSYDSSLSGSVVFGGGTKLTVLG
B5: mAb14284 (antibody, V domains shown)
VH: QITLKESGPTLVKPTQTLTLTCTFSGFSFSTSGVGVGWIRQPPGKTLEWLALIYWDDDKRYSPSLKSRLTITKDTSKNQVVLTMTNMDPVDTATYFCAHHGIPTIFGYWGQGALVTVSS
VL: QSALTQPASVSGSPGQSITISCTGTSSDLGVFNYVSWYQQHPGKAPKLMIYEVTNRPSGVSNRFSGSKSGNTASLTISGLQAEDEADYYCSSYTTSSTVFGGGTKLTVLG
B6: mAb14283 (antibody, V domains shown)
VH: QVQLQESGPGLVKPSGTLSLTCDVSGGSISSNNWWSWVRQRPGKGLQWIGEIYHNENTNYNPSLKSRVIMSIDKSKNQFSLKLTSVTAADTAVYYCARGDVLDWFDPWGQGTLVTVSS
VL: QSALTQPASVSGSPGQSTTISCTGTSSDVGGYNYVSWYQQYPGKAPKLMIYDVTNRPSGVSHRFSGSKSGNTASLTISGLQAEDEADYYCSSYTSSSTVIFGGGTKLTVLG
B7: mAb14286 (antibody, V domains shown)
VH: QVQLVQSGAEVKKPGASVKVSCKASGYTFTDYFIHWVRQAPGQGLEWMGWINPTSGGTNYAQKFRGRVTMTRDTSISTAYVELSRLRSDDTALYYCARDLPFYSDTKQFDYWGQGTLVTVSS
VL: B6 VL with S13Y, T18I, Y41H, Y51F, T54S, H62N, I77F, V99L, I100V
B8: mAb14313 (antibody, V domains shown)
VH: EVQLVESGGGLVQPGRSLRLSCVASGFTFDDSAMHWVRQPPGKGLEWVSGISWNSGIIGYAESVKGRFIISRDNAKNSLFLHMRGLRPEDTAVYYCARDRLELSYYYYGMDVWGQGTTVTVSS
VL: QSVLTQPPSASGTPGQRVTISCSGSSSNIGSNTVNWYQQFPGTAPRLLIYSNDQRPSGIPDRFSGSKSGTSASLAISGLQSEDEADYYCSTWDDSLNGAVFGGGTQLTVLG
B9: mAb14294 (antibody, V domains shown)
VH: EVQLVESGGGLVQPGGSLRLSCAASGFTFSNHWMDWVRQAPGKGLVWVSRINSDGSSTDYADSVRGRFTMSRDNAKNTLYLQMSSLRAEDTAVYYCAREGMIFGAVIIPGWYFDLWGRGALVTVSS
VL: EIVLTQSPGTLSLSPGERATLSCRASQSVSSSQLAWYQQKPGQAPRLLIYGASSRATGIPDRFSGSGSGTDFTLTISRLEPEDFAVYYCQQYDSFGQGTKLEIKR
B10: mAb14289 (antibody, V domains shown)
VH: QVQLVQSGPEVKKPGASVKVSCKASGYTFTSYAISWVRQAPGQGLEWMGWISAYNGNTNYAQKLQGRVTMTTDTFTSTAYMELRSLRSDDTAVYYCAVPADHITFDYWGQGTLVTVSS
VL: EIVLTQSPGTLSLSPGERATLSCRASQSVSSYLAWYQQKPGQAPRLLIHGASSRATGIPDRFSGSGSGTDFTLTISRLEPEDFAVYYCQQYGSSFLTFGGGTKVEIKR
B11: mAb14284 (antibody, V domains shown)
VH: B5 VH
VL: B5 VL
B12: mAb14235 (antibody, V domains shown)
VH: QITLKESGPTLVKPTQTLTLTCTFSGFSLNTGGVGVGWIRQPPGNALEWLALIYWDDDKRYNPSLKTRLTISKDTSKNQVVLTMTNMDPVDTATYFCAHLTIAVIVDFWGQGTLVTVSS
VL: B5 VL with G24A, L29V, V31T, F32Y, Y38F, Q40H, S96T, T98I

These binders were tested against T1, SARS-COV-2 RBD-MMH (SARS-COV-2 RBD extracellular domain with C-terminal myc-myc-hexahistidine tag) (SARS-CoV-2) (assay: SPR 37C, mAb captured, 90 nM RBD-MMH, dissociation pH 7.4).
B1 was tested, and the “RBD.mmh Bound at pH 7.4 (RU)” value was 83.3 RU. For B2, the “RBD.mmh Bound at pH 7.4 (RU)” value was 73.4 RU. For B3, the “RBD.mmh Bound at pH 7.4 (RU)” value was 64.2 RU. B4 was tested, and the “RBD.mmh Bound at pH 7.4 (RU)” value was 95.2 RU. For B5, the “RBD.mmh Bound at pH 7.4 (RU)” value was 147 RU. For B6, the “RBD.mmh Bound at pH 7.4 (RU)” value was 87.7 RU. B7 was tested, and the “RBD.mmh Bound at pH 7.4 (RU)” value was 84.3 RU. In the case of B8, the “RBD.mmh Bound at pH 7.4 (RU)” value is reported as 94.2 RU. In the case of B9, the “RBD.mmh Bound at pH 7.4 (RU)” value is reported as 83.2 RU. B10 was tested, and the “RBD.mmh Bound at pH 7.4 (RU)” value was 86.1 RU.

Each binder was assayed against Omicron variant SARS-CoV-2 spike glycoprotein (SEQ ID NO: 1073) (SARS-CoV-2) (assay: cell-based or functional assay).
In the case of B11, the “IC50 FC (fold change relative to D614G control)” value is reported as 1.25 fold and the “log10 FC of IC50 relative to D614G control” value is reported as 0 log10 fold. B12 was tested, and the “IC50 (pseudoparticle neutralization)” value was 6.84 pM, the “IC50 FC (fold change relative to D614G control)” value was 1.81 fold and the “log10 FC of IC50 relative to D614G control” value was 0.26 log10 fold.

Each binder was assayed against SARS-CoV-2 D614G spike protein variant (SARS-CoV-2) (assay: cell-based or functional assay).
B11 was tested, and the “IC50 (pseudoparticle neutralization)” value was 8.25 pM. With B12 the “IC50 (pseudoparticle neutralization)” value was 3.79 pM.

What follows are binders tested against SARS-CoV-2 RBD.mmh (Spike amino acids Arg319-Phe541 with C-terminal myc-myc-6-Histidine tag) (SARS-CoV-2, UniProt P0DTC2 319-541) (assay: not given).
B1 was tested, and the “% Blocking at 100 nM mAb concentration” value was 61%. With B2 the “% Blocking at 100 nM mAb concentration” value was 95%. In the case of B3, the “% Blocking at 100 nM mAb concentration” value is reported as 96%. B4 was tested, and the “% Blocking at 100 nM mAb concentration” value was 98%. With B5 the “% Blocking at 100 nM mAb concentration” value was 98%. In the case of B6, the “% Blocking at 100 nM mAb concentration” value is reported as 97%. B7 was tested, and the “% Blocking at 100 nM mAb concentration” value was 94%. For B8, the “% Blocking at 100 nM mAb concentration” value was 63%. With B9 the “% Blocking at 100 nM mAb concentration” value was 94%. In the case of B10, the “% Blocking at 100 nM mAb concentration” value is reported as 98%.

The binders below were run against T1, SARS-COV-2 RBD-MMH (SARS-COV-2 RBD …) (assay: SPR 37C, mAb captured, 90 nM RBD-MMH, dissociation pH 6.0).
With B1 the “RBD.mmh Bound at pH 7.4 (RU)” value was 82.5 RU. In the case of B2, the “RBD.mmh Bound at pH 7.4 (RU)” value is reported as 74 RU. In the case of B3, the “RBD.mmh Bound at pH 7.4 (RU)” value is reported as 77.1 RU. In the case of B4, the “RBD.mmh Bound at pH 7.4 (RU)” value is reported as 94.8 RU. In the case of B5, the “RBD.mmh Bound at pH 7.4 (RU)” value is reported as 144 RU. B6 was tested, and the “RBD.mmh Bound at pH 7.4 (RU)” value was 86.3 RU. In the case of B7, the “RBD.mmh Bound at pH 7.4 (RU)” value is reported as 87.2 RU. In the case of B8, the “RBD.mmh Bound at pH 7.4 (RU)” value is reported as 97.1 RU. In the case of B9, the “RBD.mmh Bound at pH 7.4 (RU)” value is reported as 91.1 RU. For B10, the “RBD.mmh Bound at pH 7.4 (RU)” value was 84 RU.
